Measured values from several laboratories, pooled; numbers as filed in NIAID ChemDB.

Shared fields: target-level tests; organism: Toxoplasma gondii

An empty or dashed field is not shown. Neighbouring rows are from separate reports. ICn is the concentration giving n% inhibition. Inhibition is in % at the dose shown (toxicity tests: loss of growth or viability).

smiles,strain or isolate,target,measure,tested at,value
Nc1ncnc2[nH]ncc12,RH,Phosphoribosyltransferase,inhibition,900 µM,<10%
Cc1nc(NS(=O)(=O)c2ccc(N)cc2)nc(C)c1Br,,DHPS,IC50,,230 µM
CCc1nc(N)nc(N)c1-c1ccc(N2CCCCC2)cc1,RH,DHFR,IC50,,67.6 µM
O=c1[nH]cccc1O,RH,Uracil phosphoribosyltransferase,IC50,,>2000 µM
CN1C(=O)N(C)C(=O)C(C)(NS(=O)(=O)c2ccc(N)cc2)C1=O,,DHPS,IC50,,<510 µM
CC1(C)N=C(N)N=C(N)N1c1cc(C(F)(F)F)cc(C(F)(F)F)c1,RH,DHFR,IC50,,0.58 µM
CC1(C)CN=C(NS(=O)(=O)c2ccc(N)cc2)S1,,DHPS,IC50,,300 µM
Cn1ccc(=O)[nH]c1=O,RH,Uracil phosphoribosyltransferase,IC50,,>2000 µM
Nc1nc(N)c(-c2ccc(Cl)cc2)c(C(F)(F)F)n1,RH,DHFR,IC50,,>42 µM
Nc1ccc(S(=O)(=O)Nc2ccccc2)cc1,,DHPS,IC50,,1200 µM
O=c1[nH]ncc2[nH]cnc12,RH,Phosphoribosyltransferase,Ki,,25 µM
CN(Cc1cnc2nc(N)nc(N)c2n1)c1ccc(C(=O)N[C@@H](CCC(=O)O)C(=O)O)c(Cl)c1Cl,RH,DHFR,IC50,,0.0076 µM
CSC1=NC(=O)CC(=O)N1,RH,Uracil phosphoribosyltransferase,IC50,,>2000 µM
Nc1ncnc2c1ncn2C1CCCCC1,RH,Phosphoribosyltransferase,inhibition,900 µM,<10%
CCCc1cc(=O)[nH]c(=S)[nH]1,RH,Uracil phosphoribosyltransferase,Ki,,1700 µM
O=c1[nH]c2nc[nH]c(=O)c2[nH]1,RH,Phosphoribosyltransferase,IC50,,>900 µM
CC1(C)N=C(N)N=C(N)N1c1cccc(OCCCOc2ccc([N+](=O)[O-])cc2)c1,RH,DHFR,IC50,,0.03 µM
Cn1c(=O)[nH]c(=O)c2[nH]c(=O)[nH]c21,RH,Phosphoribosyltransferase,inhibition,900 µM,<10%
O=c1cc(CCl)[nH]c(=O)[nH]1,RH,Uracil phosphoribosyltransferase,IC50,,>2000 µM
O=C1CC=Cc2[nH]ccc21,RH,Phosphoribosyltransferase,IC50,,>900 µM
Oc1cccc(O)c1,RH,Uracil phosphoribosyltransferase,IC50,,>2000 µM
CN(Cc1cnc2nc(N)nc(N)c2n1)c1ccc(C(=O)N[C@@H](CCC(=O)N[C@@H](CCC(=O)N[C@@H](CCC(=O)O)C(=O)O)C(=O)O)C(=O)O)cc1,RH,DHFR,IC50,,0.00107 µM
O=C1CC(=O)NC(=O)N1,RH,Uracil phosphoribosyltransferase,IC50,,>2000 µM
Nc1nc(N)c2nc(CNc3cccc4ccccc34)cnc2n1,RH,DHFR,IC50,,0.076 µM
CCCc1c[nH]c(=O)[nH]c1=O,RH,Uracil phosphoribosyltransferase,inhibition,2000 µM,<5%
Cn1c(=O)[nH]c(=O)c2[nH]cnc21,RH,Phosphoribosyltransferase,IC50,,>900 µM
O=C(O)Cc1cc(=O)[nH]c(=O)[nH]1,RH,Uracil phosphoribosyltransferase,IC50,,>2000 µM
O=c1cc[nH]c(=O)[nH]1,RH,Phosphoribosyltransferase,Ki,,808 µM

4 of the rows above, restated:

{"smiles": "CN1C(=O)N(C)C(=O)C(C)(NS(=O)(=O)c2ccc(N)cc2)C1=O", "target": "DHPS", "measure": "IC50", "value": "<510 µM"}
{"smiles": "O=c1cc(CCl)[nH]c(=O)[nH]1", "strain or isolate": "RH", "target": "Uracil phosphoribosyltransferase", "measure": "IC50", "value": ">2000 µM"}
{"smiles": "O=c1cc[nH]c(=O)[nH]1", "strain or isolate": "RH", "target": "Phosphoribosyltransferase", "measure": "Ki", "value": "808 µM"}
{"smiles": "Cn1ccc(=O)[nH]c1=O", "strain or isolate": "RH", "target": "Uracil phosphoribosyltransferase", "measure": "IC50", "value": ">2000 µM"}